Measured values reported in US12172959B2, “Mono- or di-substituted indole derivatives as dengue viral replication inhibitors” (priority 2015, dated 2024).

Tested on: DENV-2 16681 strain
Test: DENV-2 antiviral assay (eGFP fluorescence, Vero cells)
Assay type: cell-based, Dengue virus
Details: SI=CC50/EC50, DENV-2 antiviral assay
Experimental: The antiviral activity of all the compounds of the invention was tested against the DENV-2 16681 strain which was labeled with enhanced green fluorescent protein (eGPF; Table 1). The culture medium consists of minimal essential medium supplemented with 2% of heat-inactivated fetal calf serum, 0.04% gentamycin (50 mg/mL) and 2 mM of L-glutamine. Vero cells, obtained from ECACC, were suspended in culture medium and 25 μL was added to 384-well plates (2500 cells/well), which already contain the antiviral compounds. Typically, these plates contain a 5-fold serial dilution of 9 dilution steps of the test compound at 200 times the final concentration in 100% DMSO (200 nL). […] Finally, each plate contains wells which are assigned as virus controls (containing cells and virus in the absence of compound), cell controls (containing cells in the absence of virus and compound) and medium controls (containing medium in the absence of cells, virus and compounds). To the wells assigned as medium control, 25 μL of culture medium was added instead of Vero cells. Once the cells were added to the plates, the plates were incubated for 30 minutes at room temperature to allow the cells to distribute evenly within the wells. Next, the plates were incubated in a fully humidified incubator (37° C., 5% CO2) until the next day. Then, DENV-2 strain 16681, labeled with eGFP, was added at a multiplicity of infection (MOI) of 0.5. Therefore, 15 μL of virus suspension was added to all the wells containing test compound and to the wells assigned as virus control. In parallel, 15 μL of culture medium was added to the medium and cell controls. Next, the plates were incubated for 3 days in a fully humidified incubator (37° C., 5% CO2). At the day of the read out, the eGFP fluorescence was measured using an automated fluorescence microscope at 488 nm (blue laser). Using an in-house LIMS system, inhibition dose response curves for each compound were calculated and the half maximal effective concentration (EC50) was determined. Therefore, the percent inhibition (I) for every test concentration is calculated using the following formula: I=100*(ST−SCC)/(SVC−SCC); ST, SCC and SVC are the amount of eGFP signal in the test compound, cell control and virus control wells, respectively. The EC50 represents the concentration of a compound at which the virus replication is inhibited with 50%, as measured by a 50% reduction of the eGFP fluorescent intensity compared to the virus control. The EC50 is calculated using linear interpolation.

Row | SMILES | SI
1 | COc1cc(NC(C(=O)c2c[nH]c3cc(F)ccc23)c2ccc(Cl)cc2OC)cc(S(C)(=O)=O)c1 (racemic) [Compound 1, 2-(4-chloro-2-methoxyphenyl)-1-(6-fluoro-1H-indol-3-yl)-2-((3-methoxy-5-(methylsulfonyl)phenyl)amino)ethanone] | 11500
2 | COc1cc(NC(C(=O)c2c[nH]c3c(C)c(F)ccc23)c2ccc(Cl)cc2OC)cc(S(C)(=O)=O)c1 (racemic) [Compound 2, 2-(4-chloro-2-methoxyphenyl)-1-(6-fluoro-7-methyl-1H-indol-3-yl)-2-((3-methoxy-5-(methylsulfonyl)phenyl)amino)ethanone] | 8410
3 | COc1cc(NC(C(=O)c2c[nH]c3cc(OC)ccc23)c2ccc(Cl)cc2OC)cc(S(C)(=O)=O)c1 (racemic) [Compound 3, 2-(4-chloro-2-methoxyphenyl)-1-(6-methoxy-1H-indol-3-yl)-2-((3-methoxy-5-(methylsulfonyl)phenyl)amino)ethanone] | 37700
4 | COc1cc(NC(C(=O)c2c[nH]c3cc(OC)c(C)cc23)c2ccc(Cl)cc2OC)cc(S(C)(=O)=O)c1 (racemic) [Compound 4, 2-(4-chloro-2-methoxyphenyl)-2-((3-methoxy-5-(methyl-sulfonyl)phenyl)amino)-1-(6-methoxy-5-methyl-1H-indol-3-yl)ethanone] | 14900
5 | COc1cc(NC(C(=O)c2c[nH]c3cc(OC)c(F)cc23)c2ccc(Cl)cc2OC)cc(S(C)(=O)=O)c1 (racemic) [Compound 5, 2-(4-chloro-2-methoxyphenyl)-1-(5-fluoro-6-methoxy-1H-indol-3-yl)-2-((3-methoxy-5-(methylsulfonyl)phenyl)amino)ethanone] | 8780
6 | COc1cc(NC(C(=O)c2c[nH]c3cc(F)c(C)cc23)c2ccc(Cl)cc2OC)cc(S(C)(=O)=O)c1 (racemic) [Compound 7, 2-(4-chloro-2-methoxyphenyl)-1-(6-fluoro-5-methyl-1H-indol-3-yl)-2-((3-methoxy-5-(methylsulfonyl)phenyl)amino)ethanone] | >7040
7 | COc1cc(NC(C(=O)c2c[nH]c3ccc(C(F)(F)F)cc23)c2ccc(Cl)cc2OC)cc(S(C)(=O)=O)c1 (racemic) [Compound 8, 2-(4-chloro-2-methoxyphenyl)-2-((3-methoxy-5-(methyl-sulfonyl)phenyl)amino)-1-(5-(trifluoromethyl)-1H-indol-3-yl)ethanone] | 30400
8 | COc1cc(NC(C(=O)c2c[nH]c3ccc(OC(F)(F)F)cc23)c2ccc(Cl)cc2OC)cc(S(C)(=O)=O)c1 (racemic) [Compound 9, 2-(4-chloro-2-methoxyphenyl)-2-((3-methoxy-5-(methyl-sulfonyl)phenyl)amino)-1-(5-(trifluoromethoxy)-1H-indol-3-yl)ethanone] | >39100
9 | COc1cc(NC(C(=O)c2c[nH]c3cc(F)ccc23)c2ccc(Cl)cc2OC)cc(S(C)(=O)=O)c1 (single isomer, unassigned) [Compound 1B, 2-(4-chloro-2-methoxyphenyl)-1-(6-fluoro-1H-indol-3-yl)-2-((3-methoxy-5-(methylsulfonyl)phenyl)amino)ethanone] | 530
10 | COc1cc(NC(C(=O)c2c[nH]c3c(C)c(F)ccc23)c2ccc(Cl)cc2OC)cc(S(C)(=O)=O)c1 (single isomer, unassigned) [Compound 2B, 2-(4-chloro-2-methoxyphenyl)-1-(6-fluoro-7-methyl-1H-indol-3-yl)-2-((3-methoxy-5-(methylsulfonyl)phenyl)amino)ethanone] | 285
11 | COc1cc(NC(C(=O)c2c[nH]c3cc(OC)ccc23)c2ccc(Cl)cc2OC)cc(S(C)(=O)=O)c1 (single isomer, unassigned) [Compound 3B, 2-(4-chloro-2-methoxyphenyl)-1-(6-methoxy-1H-indol-3-yl)-2-((3-methoxy-5-(methylsulfonyl)phenyl)amino)ethanone] | 2480
12 | COc1cc(NC(C(=O)c2c[nH]c3cc(OC)c(C)cc23)c2ccc(Cl)cc2OC)cc(S(C)(=O)=O)c1 (single isomer, unassigned) [Compound 4B, 2-(4-chloro-2-methoxyphenyl)-2-((3-methoxy-5-(methyl-sulfonyl)phenyl)amino)-1-(6-methoxy-5-methyl-1H-indol-3-yl)ethanone] | 341
13 | COc1cc(NC(C(=O)c2c[nH]c3cc(OC)c(F)cc23)c2ccc(Cl)cc2OC)cc(S(C)(=O)=O)c1 (single isomer, unassigned) [Compound 5B, 2-(4-chloro-2-methoxyphenyl)-1-(5-fluoro-6-methoxy-1H-indol-3-yl)-2-((3-methoxy-5-(methylsulfonyl)phenyl)amino)ethanone] | 206
14 | COc1cc(NC(C(=O)c2c[nH]c3c(C)c(OC)ccc23)c2ccc(Cl)cc2OC)cc(S(C)(=O)=O)c1 (single isomer, unassigned) [Compound 6B, 2-(4-chloro-2-methoxyphenyl)-2-((3-methoxy-5-(methyl-sulfonyl)phenyl)amino)-1-(6-methoxy-7-methyl-1H-indol-3-yl)ethanone] | 603
15 | COc1cc(NC(C(=O)c2c[nH]c3cc(F)c(C)cc23)c2ccc(Cl)cc2OC)cc(S(C)(=O)=O)c1 (single isomer, unassigned) [Compound 7A, 2-(4-chloro-2-methoxyphenyl)-1-(6-fluoro-5-methyl-1H-indol-3-yl)-2-((3-methoxy-5-(methylsulfonyl)phenyl)amino)ethanone] | 538
16 | COc1cc(NC(C(=O)c2c[nH]c3ccc(C(F)(F)F)cc23)c2ccc(Cl)cc2OC)cc(S(C)(=O)=O)c1 (single isomer, unassigned) [Compound 8A, 2-(4-chloro-2-methoxyphenyl)-2-((3-methoxy-5-(methyl-sulfonyl)phenyl)amino)-1-(5-(trifluoromethyl)-1H-indol-3-yl)ethanone] | 2510
17 | COc1cc(NC(C(=O)c2c[nH]c3ccc(OC(F)(F)F)cc23)c2ccc(Cl)cc2OC)cc(S(C)(=O)=O)c1 (single isomer, unassigned) [Compound 9B, 2-(4-chloro-2-methoxyphenyl)-2-((3-methoxy-5-(methyl-sulfonyl)phenyl)amino)-1-(5-(trifluoromethoxy)-1H-indol-3-yl)ethanone] | 1480
18 | COc1cc(NC(C(=O)c2c[nH]c3cc(OC)c(OC(F)(F)F)cc23)c2ccc(Cl)cc2OC)cc(S(C)(=O)=O)c1 (single isomer, unassigned) [Compound 10B, 2-(4-chloro-2-methoxyphenyl)-2-((3-methoxy-5-(methylsulfonyl)phenyl)amino)-1-(6-methoxy-5-(trifluoromethoxy)-1H-indol-3-yl)ethanone] | 2530
19 | COc1cc(NC(C(=O)c2c[nH]c3c(C)cc(OC(F)(F)F)cc23)c2ccc(Cl)cc2OC)cc(S(C)(=O)=O)c1 (single isomer, unassigned) [Compound 11B, 2-(4-chloro-2-methoxyphenyl)-2-((3-methoxy-5-(methylsulfonyl)phenyl)amino)-1-(7-methyl-5-(trifluoromethoxy)-1H-indol-3-yl)ethanone] | 2220
